Biological target: HpIMPDH (Helicobacter pylori, UniProt P56088)
Assay: HpIMPDH enzyme inhibition assay (NADH fluorescence)
Format: biochemical
Conditions: Table S3

Chains of the proteins cited; added tags and fusions are not shown.
UniProt P56088, whole entry: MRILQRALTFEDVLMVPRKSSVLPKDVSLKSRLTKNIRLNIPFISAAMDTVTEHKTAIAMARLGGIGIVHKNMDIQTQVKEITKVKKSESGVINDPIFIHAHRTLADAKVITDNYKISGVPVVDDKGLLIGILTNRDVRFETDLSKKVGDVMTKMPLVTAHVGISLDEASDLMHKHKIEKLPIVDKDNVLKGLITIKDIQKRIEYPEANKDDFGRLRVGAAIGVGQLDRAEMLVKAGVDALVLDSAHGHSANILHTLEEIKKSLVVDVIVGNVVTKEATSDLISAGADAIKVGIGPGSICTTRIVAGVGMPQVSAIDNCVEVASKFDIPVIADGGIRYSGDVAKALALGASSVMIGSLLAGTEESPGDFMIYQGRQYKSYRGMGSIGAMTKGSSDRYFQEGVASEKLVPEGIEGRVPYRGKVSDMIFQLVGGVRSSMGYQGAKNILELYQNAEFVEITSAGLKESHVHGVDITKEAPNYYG

Compound	IC50, inhibition profile of indole based compounds
O=C(Cn1cc(CCc2ccncc2)c2ccccc21)Nc1ccc(Br)cc1	No inhibition

Same assay, conditions: read-out: IC50, inhibition profile of indole based compounds; Table S3

Compound	IC50
O=C(Cn1cc(C(=O)O)c2ccccc21)Nc1ccc(Br)cc1	3.02 µM
O=C(Cn1cc(CCc2ccncc2)c2ccccc21)Nc1ccc(Cl)cc1	9.71 µM
O=C(Cn1cc(CCc2ccncc2)c2ccccc21)Nc1ccc2ccccc2c1	5.63 µM
O=C(Cn1cc(C(=O)Nc2ccc3ccccc3c2)c2ccccc21)Nc1ccc(Br)cc1	30.9 µM
O=C(Cn1cc(C(=O)O)c2ccccc21)Nc1ccc(Cl)cc1	14.4 µM

Source: article PMC6336804, “Identification of selective inhibitors of Helicobacter pylori IMPDH as a targeted therapy for the infection” (Scientific Reports, 2019)
